Measured values from several laboratories, pooled; numbers as filed in NIAID ChemDB.

All rows: growth or infection tests; species: Mycobacterium tuberculosis

Percent inhibition refers to the dose given; in toxicity tests it is the harm to the cells. Conditions beyond the fields shown may differ between rows. An empty or dashed field is not shown. ECn is the concentration giving n% inhibition of infection, replication or growth. MIC50, MIC90 and the like: level of inhibition, or share of isolates inhibited. MIC bound comes from a single tested concentration.

compound	tested at	changes	setting	strain	method	read-out	value
O=[N+]([O-])c1cn2c(n1)OC[C@H](OCc1ccc(OC(F)(F)F)cc1)C2				H37Rv	resazurin	MIC	0.078 µg/mL
C=CC[N+]12CC=C3COC(=O)C(C)(O)C(C)(O)C(C)C(=O)OC(CC1)C32.[Br-]	12.5 µg/mL			H37Rv	BACTEC	inhibition	1%
Cc1[nH]n(CCO)c(=O)c1N=Nc1ccc(-c2n[nH]c(=S)o2)cc1				H37Rv		MIC	>12.5 µg/mL
CCc1ccc2[nH]c3cc(C#N)c(=O)oc3c2c1				H37Rv	resazurin	MIC99	1.6 µg/mL
Cc1cc(=O)oc2cc(N)ccc12				H37Rv	resazurin	MBC	>1500 µg/mL
Cc1c[nH]c2c1C13CC1CN(C(=O)c1cc4cc(NC(=O)c5cc6ccccc6o5)ccc4[nH]1)C3=CC2=O	6.25 µg/mL			H37Rv	BACTEC	inhibition	99%
Cc1ccc2nc(SCc3ccc(C(F)(F)F)cc3)[nH]c2c1				MY 332/88		MIC	32 µM
O=C(Oc1ccc(Br)cc1C(=O)Nc1ccc(C(F)(F)F)cc1)c1cnccn1			14 d	H37Rv 331/88		MIC	0.5 µM
CC(=O)NC[C@H]1CN(c2ccc(N3CCN(c4ccc([N+](=O)[O-])s4)CC3)c(F)c2)C(=O)O1				ATCC		MIC	≤0.125 µg/mL
CC(=O)NC1C[C@@H]2CN(c3ccc(N4C[C@H](Cn5ccnn5)OC4=O)cc3F)C[C@@H]2C1				H37Rv	broth dilution / resazurin	MIC	1 µg/mL
C1CCNCC1.S=C(S)N1CCCCC1				RMP-R		MIC	0.8 µg/mL
CC1(C)CC[C@]2(C(=O)O)CC[C@]3(C)C(=CC[C@@H]4[C@]56CCC(O)(OC5)C(C)(C)[C@@H]6CC[C@]43C)[C@@H]2C1				H37Rv		MIC	>80 µg/mL
CC1COc2c(N3CCN(C(N)=NC#N)CC3)c(F)cc3c(=O)c(C(=O)O)cn1c23				H27Rv	broth dilution	MIC	0.312 µg/mL
O=C(Oc1ccc(Cl)cc1C(=O)Nc1ccc(Br)cc1)c1cnccn1			14 d	H37Rv 331/88		MIC	2 µM
Cc1ccc2nc(-c3ccccc3)cc(NNC(=O)c3ccncc3)c2c1				Strain 2 (MDR)		MIC	1 µg/mL
Clc1c(Cl)c(C[P+](CCP(c2ccccc2)c2ccccc2)(c2ccccc2)c2ccccc2)c(Cl)c(Cl)c1C[P+](CCP(c1ccccc1)c1ccccc1)(c1ccccc1)c1ccccc1.[Cl-].[Cl-]	0.5 µM				BACTEC	inhibition	3%
O=C(NCc1cccc(C(F)(F)F)c1)c1ccccc1O				My 331/88		MIC	62.5 µg/mL
Cc1c(-c2ccccc2)c(=O)oc2ccc(-c3cc(-c4ccc(F)cc4)c4c(n3)-c3ccccc3CC4)cc12	250 µg/mL			H37Rv	agar / visual reading	inhibition	39%
Oc1cc(Cl)ccc1C(=S)NCc1ccccc1				My 331/88		MIC	2 µg/mL
CCn1cc(C(=O)N/N=C/c2ccc(Cl)cc2)c(=O)c2cc(Cl)ccc21				H37Rv (ATCC 27294)	resazurin	MIC	>100 µg/mL
N#Cc1cc2[nH]c3ccc(O)cc3c2oc1=O				H37Rv	resazurin	MIC99	25 µg/mL
Cc1oc2c(C)c3oc(=O)cc(C)c3cc2c1CN1C(=O)[C@@H]2OCCOCCOCCOCCOCCO[C@H]2C1=O	6.25 µg/mL			H37Rv	resazurin	inhibition	-7%
Cc1ccc(-c2cc(-c3ccc4oc(=O)c(-c5ccccc5)c(C)c4c3)nc3c2Cc2ccccc2-3)cc1	250 µg/mL			H37Rv	agar / visual reading	inhibition	51%
NC(=S)N/N=C/c1ccc2oc3ccccc3c2c1				H37Rv		MIC	≤0.025 µg/mL
CC(=O)NC[C@H]1CN(c2ccc(N3C[C@H]4CC(NC(=O)Nc5ccccc5)C[C@H]4C3)c(F)c2)C(=O)O1				H37Rv	broth dilution / resazurin	MIC	2 µg/mL
CCOC(=O)/C(N=Nc1ccc(-c2n[nH]c(=S)n2CC)cc1)=C(\C)O	12.5 µg/mL			H37Rv		inhibition	0%
O=C(Oc1ccc(Cl)cc1C(=O)Nc1ccc(C(F)(F)F)cc1)c1cnccn1			21 d	multidrug resistant 7357/1998		MIC	0.25 µM
CCn1cc(C(=O)N/N=C/c2ccc(Br)s2)c(=O)c2ccccc21				H37Rv (ATCC 27294)	resazurin	MIC	>100 µg/mL
Cc1ccc2nc(SCc3cccc(C#N)c3)[nH]c2c1				MY 332/88		MIC	62 µM
CC(C)N=c1cc2n(-c3ccc(Cl)cc3)c3ccccc3nc-2cc1Nc1ccc(Cl)cc1				ETA-R		MIC	≤0.1 µg/mL
CO[C@H]1/C=C/O[C@@]2(C)Oc3c(C)c(O)c4c(O)c(c(/C=N/N5CCN(C)CC5)c(O)c4c3C2=O)NC(=O)/C(C)=C\C=C\[C@H](C)[C@H](O)[C@@H](C)[C@@H](O)[C@@H](C)[C@H](OC(C)=O)[C@@H]1C				Isolate 3		MIC	>32 µg/mL
Cc1ccccc1N1CCN(C(=O)c2ccccn2)CC1	6.25 µg/mL			H37Rv	resazurin	inhibition	3%
COc1cccc2c(NNC(=O)c3ccncc3)cc(-c3ccccc3)nc12				Strain 2 (MDR)		MIC	4 µg/mL
NC[C@H]1O[C@H](O[C@H]2[C@H](O)[C@@H](O[C@H]3O[C@H](CO)[C@@H](O)[C@H](N)[C@H]3O)[C@H](N)C[C@@H]2N)[C@H](O)[C@@H](O)[C@@H]1O		Kanamycin-resistant		H37Rv	resazurin / fluorescence	MIC90	>2 µg/mL
O=c1ccc2c(O)c3ccoc3cc2o1				H37Rv	BACTEC	MIC bound	>12.5 µg/mL
Cc1ccc2nc(SCc3cccc(Br)c3)[nH]c2c1				MY 332/88		MIC	62 µM
Cc1ccc(O)c(C(=O)NCc2ccc(C(C)(C)C)cc2)c1				My 331/88		MIC	32 µg/mL
O=C(CC1OC(O)C(Cl)=C1Cl)c1cccnc1	12.5 µg/mL			H37Rv	BACTEC	inhibition	0%
CC1CCCN(c2ccc([N+](=O)[O-])s2)C1				ss18b	resazurin	MIC	6.25 µg/mL
COc1ccc2c(C)cc(N/N=C(\C)c3cn(C)n(-c4ccccc4)c3=O)nc2c1				H37Rv	BACTEC	MIC bound	>12.5 µg/mL
Cc1c(-c2ccccc2)c(=O)oc2ccc(-c3cc(-c4ccccc4)c4c(n3)-c3ccccc3CC4)cc12	250 µg/mL			H37Rv	agar / visual reading	inhibition	27%
C[C@@H]1CN(c2c(F)c(N)c3c(=O)c(C(=O)O)cn(C4CC4)c3c2F)C[C@H](C)N1				Isolate 3		MIC	0.5 µg/mL
COCNC(=S)c1cc(C(=S)NCOC)c(C(=O)NC(C)(C)C)nc1C(=O)NC(C)(C)C	6.25 µg/mL			H37Rv	BACTEC	inhibition	0%
Cc1[nH]n(-c2ccccc2)c(=O)c1N=Nc1ccc(C(=O)N/N=C/c2ccc(F)cc2)cc1				H37Rv		EC50	>12.5 µg/mL
CCOC(=O)C(=O)Cc1nc2ccccc2[nH]c1=O	6.25 µg/mL			H37Rv	resazurin	inhibition	-8%
Cc1[nH]n(CCO)c(=O)c1N=Nc1ccc(C(=O)N/N=C/c2ccc(F)cc2)cc1				H37Rv		MIC	>12.5 µg/mL
CC1CCN(c2sc([N+](=O)[O-])cc2[N+](=O)[O-])CC1				ss18b	resazurin	MIC	6.25 µg/mL
OCC1=CCN2CC[C@H](O)[C@H]12				H37Rv	BACTEC	MIC	≥128 µg/mL
CCn1cc(C(=O)NN=Cc2ccc([N+](=O)[O-])o2)c(=O)c2ccccc21				H37Rv	resazurin	MIC	6.25 µg/mL
Cc1ccc2nc(SCc3cc(C(F)(F)F)cc(C(F)(F)F)c3)[nH]c2c1				MY 332/88		MIC	32 µM
Oc1cccc(Nc2cc(-c3ccccc3)nc3ccc(Cl)cc23)c1				Strain 2 (MDR)		MIC	8 µg/mL
Cc1ccc(O)c(C(=O)NCc2ccc(Cl)cc2)c1				My 331/88		MIC	62.5 µg/mL
CC(C)=CCO[C@@H]1[C@@H](O)C(C)(C)C[C@H]2C3=CC[C@@H]4[C@]56CCC(O)(OC5)C(C)(C)[C@@H]6CC[C@@]4(C)[C@]3(C)CC[C@@]12C(=O)O				H37Rv		MIC	>75 µg/mL
Cc1cc(=O)[nH]c2c1C(=O)c1c(CCCCCCC(C)C)cc(=O)[nH]c1C2=O				H37Rv	resazurin / fluorescence	MIC90	0.04 µg/mL
CC(=O)NC[C@H]1CN(c2ccc(N3C[C@H]4CC(NCc5ccccc5)C[C@H]4C3)c(F)c2)C(=O)O1				H37Rv	broth dilution / resazurin	MIC	32 µg/mL
Cc1c(-c2ccccc2)c(=O)oc2ccc(-c3cc(-c4ccc(F)cc4)c4c(n3)-c3ccccc3C4)cc12	250 µg/mL			H37Rv	agar / visual reading	inhibition	49%
NC[C@H]1O[C@H](O[C@H]2[C@H](O)[C@@H](O[C@H]3O[C@H](CO)[C@@H](O)[C@H](N)[C@H]3O)[C@H](N)C[C@@H]2N)[C@H](O)[C@@H](O)[C@@H]1O				Isolate 13		MIC	2 µg/mL
CCn1cc(C(=O)N/N=C/c2ccc(Br)s2)c(=O)c2cc(Cl)ccc21				H37Rv (ATCC 27294)	resazurin	MIC	>100 µg/mL
Cc1[nH]n(-c2ccccc2)c(=O)c1N=Nc1ccc(-c2n[nH]c(=S)n2-c2ccccc2)cc1				H37Rv		EC50	>12.5 µg/mL
CC1CC(C)CN(c2ccc([N+](=O)[O-])s2)C1				ss18b	resazurin	MIC	12.5 µg/mL
COc1ccc2nc(-c3ccccc3)cc(NNC(=O)c3ccncc3)c2c1				Strain 1 (MDR)		MIC	5 µg/mL
O=C1O[C@@H](Cn2ccnn2)CN1c1ccc(N2C[C@H]3CC(NCc4ccccc4)C[C@H]3C2)c(F)c1				H37Rv	broth dilution / resazurin	MIC	32 µg/mL
O=C(NC1CCCCC1)N(C(=O)c1cnccn1)C1CCCCC1			14 d	331/88		MIC	500 µM
COC(=O)c1csc(C2OC(CO)C(O)C2O)n1	12.5 µg/mL			H37Rv	BACTEC	inhibition	0%
COc1ccc(-c2cc(-c3ccc4oc(=O)c(-c5ccccc5)c(C)c4c3)nc3c2Cc2ccccc2-3)cc1OC	250 µg/mL			H37Rv	agar / visual reading	inhibition	65%
CC(C)(C)C1=NC(=S)SC2=NC(=O)C3(NN21)c1ccccc1-c1ccccc13				H37Rv	resazurin	MIC	3.13 µg/mL
CCn1cc(C(=O)N/N=C/c2ccc(Cl)cc2)c(=O)c2ccccc21				H37Rv (ATCC 27294)	resazurin	MIC	>100 µg/mL
CO[C@@]12[C@H](COC(N)=O)C3=C(C(=O)C(C)=C(NCCc4ccccn4)C3=O)N1C[C@@H]1N[C@@H]12	0.5 µM				BACTEC	inhibition	32%
N#Cc1cc2[nH]c3ccc([N+](=O)[O-])cc3c2oc1=O				H37Rv	resazurin	MIC99	25 µg/mL
CN[C@@H]1[C@H](O[C@H]2[C@H](O[C@H]3[C@H](O)[C@@H](O)[C@H](N=C(N)N)[C@@H](O)[C@@H]3N=C(N)N)O[C@@H](C)[C@]2(O)C=O)O[C@@H](CO)[C@H](O)[C@H]1O		Cycloserine-resistant		H37Rv	resazurin / fluorescence	MIC90	0.41 µg/mL
COc1ccc(-c2cc(-c3ccc4oc(=O)c(-c5ccccc5)c(C)c4c3)nc3c2CCc2ccccc2-3)cc1OC				H37Rv	agar / visual reading	MIC	100 µg/mL
CC(C)N(CN1C(=O)N/C(=C\c2cccc(/C=C3/NC(=O)N(CN(C(C)C)C(C)C)C3=O)c2)C1=O)C(C)C	12.5 µg/mL			H37Rv	BACTEC	inhibition	14%
NC(=S)NC1C[C@@H]2CN(c3ccc(N4C[C@H](Cn5ccnn5)OC4=O)cc3F)C[C@@H]2C1				H37Rv	broth dilution / resazurin	MIC	0.5 µg/mL
C/C=C(\C)c1cc(=O)c2c(C)cc3c(c2o1)C(=O)c1c(O)c([C@H]2C[C@](C)(N(C)C)[C@H](OC(C)=O)[C@H](C)O2)cc([C@H]2C[C@@H](N(C)C)[C@H](OC(C)=O)[C@@H](C)O2)c1C3=O				H37Rv	BACTEC	MIC bound	>12.8 µg/mL
O=C(Oc1ccc(Cl)cc1C(=O)Nc1ccc(Cl)c(Cl)c1)c1cnccn1			21 d	extensively drug resistant Praha 131		MIC	1 µM
CC1(C)CC2=C(SC3C=CC=CC3N2)C(=O)C1C(=O)C(N)=O	12.5 µg/mL			H37Rv	BACTEC	inhibition	13%
Cc1[nH][nH]c(=O)c1N=Nc1ccc(-c2n[nH]c(=S)o2)cc1	12.5 µg/mL			H37Rv		inhibition	0%

Repeating the final 7 entries:

compound	tested at	changes	setting	strain	method	read-out	value
COc1ccc(-c2cc(-c3ccc4oc(=O)c(-c5ccccc5)c(C)c4c3)nc3c2CCc2ccccc2-3)cc1OC				H37Rv	agar / visual reading	MIC	100 µg/mL
CC(C)N(CN1C(=O)N/C(=C\c2cccc(/C=C3/NC(=O)N(CN(C(C)C)C(C)C)C3=O)c2)C1=O)C(C)C	12.5 µg/mL			H37Rv	BACTEC	inhibition	14%
NC(=S)NC1C[C@@H]2CN(c3ccc(N4C[C@H](Cn5ccnn5)OC4=O)cc3F)C[C@@H]2C1				H37Rv	broth dilution / resazurin	MIC	0.5 µg/mL
C/C=C(\C)c1cc(=O)c2c(C)cc3c(c2o1)C(=O)c1c(O)c([C@H]2C[C@](C)(N(C)C)[C@H](OC(C)=O)[C@H](C)O2)cc([C@H]2C[C@@H](N(C)C)[C@H](OC(C)=O)[C@@H](C)O2)c1C3=O				H37Rv	BACTEC	MIC bound	>12.8 µg/mL
O=C(Oc1ccc(Cl)cc1C(=O)Nc1ccc(Cl)c(Cl)c1)c1cnccn1			21 d	extensively drug resistant Praha 131		MIC	1 µM
CC1(C)CC2=C(SC3C=CC=CC3N2)C(=O)C1C(=O)C(N)=O	12.5 µg/mL			H37Rv	BACTEC	inhibition	13%
Cc1[nH][nH]c(=O)c1N=Nc1ccc(-c2n[nH]c(=S)o2)cc1	12.5 µg/mL			H37Rv		inhibition	0%